Results of unrelated studies side by side (data: NIAID ChemDB).

An empty or dashed field is not shown. MIC bound: limit read from a one-dose screen. ECn is the concentration giving n% inhibition of infection, replication or growth. MIC50, MIC90 and the like: level of inhibition, or share of isolates inhibited. Neighbouring rows are from separate reports. ICn is the concentration giving n% inhibition. Inhibition is in % at the dose shown (toxicity tests: loss of growth or viability).

SMILES,protein,measure,strain or isolate,cells,read by,dose,species,test,changes,result
C/C(=N/NC(=S)N1CCC(c2ccccc2)CC1)c1nccnc1C,-,MIC,ETA-R,-,-,-,Mycobacterium tuberculosis,culture,-,6.3 µg/mL
O=C(CC(=O)Nc1cccc(Cl)c1)Nc1cccc(Cl)c1,-,MIC,H37Rv,-,-,-,Mycobacterium tuberculosis,culture,-,>100 µg/mL
CN1CCC23c4c5cc(-c6cc7c8c(c6O)OC6C(O)C=CC9C(C7)N(C)CCC896)c(O)c4OC2C(O)C=CC3C1C5.CS(=O)(=O)O,-,MIC bound,H37Rv,-,BACTEC,-,Mycobacterium tuberculosis,culture,-,>12.5 µg/mL
CCCCCCCCCCCCCc1ccccn1,-,MIC,H37Rv,-,-,-,Mycobacterium tuberculosis,culture,-,>100 µg/mL
Oc1ccc(CCNCCN[C@@H](c2ccccc2)[C@H](O)c2ccccc2)cc1O,-,MIC,-,-,-,-,Mycobacterium tuberculosis,culture,-,50 µM
O=C(Nc1nnc(NCCc2c[nH]c3ccccc23)s1)c1cccc([N+](=O)[O-])c1,Polymerase,IC50,-,-,-,-,Human cytomegalovirus,target,-,>25 µM
Cc1ccc(O)c(C(=O)c2ccccc2C(=O)O)c1,-,MIC,H37Rv,-,-,-,Mycobacterium tuberculosis,culture,-,50 µg/mL
Fc1ccc(N2CCN(c3cncc(-c4ccc5ccccc5c4)n3)CC2)cc1,UL97 kinase,IC50,-,-,-,-,Cytomegalovirus,target,-,<1 µM
C=CCc1ccccc1O,-,MIC,H37Rv,-,-,-,Mycobacterium tuberculosis,culture,-,100 µg/mL
COc1ccc2cc(-c3cncc(N4CCN(c5ccc(C(C)=O)cc5)CC4)n3)ccc2c1,UL97 kinase,IC50,-,-,-,-,Cytomegalovirus,target,-,<10 µM
C[C@@H]1[C@H]2C[C@@H](C[C@H]1NCCNC1C3CC4CC(C3)CC1C4)C2(C)C,-,MIC,-,-,-,-,Mycobacterium tuberculosis,culture,-,12.5 µM
NC(=S)N/N=C/c1nc2c3cccnc3ccc2n1Cc1ccccc1,-,inhibition,H37Rv,-,BACTEC,12.5 µg/mL,Mycobacterium tuberculosis,culture,-,40%
O=C1c2cccc([N+](=O)[O-])c2C(=O)c2c1cccc2[N+](=O)[O-],-,MIC,H37Rv,-,-,-,Mycobacterium tuberculosis,culture,-,>100 µg/mL
N#Cc1ccc(C(=O)Nc2nnc(NCCC(c3ccccc3)c3ccccc3)s2)cc1,Polymerase,IC50,-,-,-,-,Human cytomegalovirus,target,-,<25 µM
c1ccc([C@H]2C[C@@H]2NCCNC2C3CC4CC(C3)CC2C4)cc1,-,MIC,-,-,-,-,Mycobacterium tuberculosis,culture,-,25 µM
COc1ccc(-c2cncc(N3CCN(c4cccc(Cl)c4)CC3)n2)cc1OC,UL97 kinase,inhibition,-,-,-,1 µM,Cytomegalovirus,target,-,<50%
Fc1ccc(N2CCCCC2)c(NC(=S)c2ccncc2)c1,Pim-2,inhibition,-,-,kinase activity,10 µM,-,host protein,-,43%
CC(=O)/C=C/c1ccccc1O,-,MIC,H37Rv,-,-,-,Mycobacterium tuberculosis,culture,-,50 µg/mL
O=C(Nc1nnc(NCCCNC2CCCCC2)s1)c1cccc([N+](=O)[O-])c1,Polymerase,IC50,-,-,-,-,Human cytomegalovirus,target,-,<25 µM
COc1cc(C[C@H](C)[C@H](C)Cc2ccc(O)c(O)c2)ccc1O,-,MIC100,CCC 122-2000,-,broth dilution,-,Candida colliculosa,culture,-,62.5 µg/mL
c1ccc(C(CCNCCNCC23CC4CC(CC(C4)C2)C3)c2ccccc2)cc1,-,MIC,-,-,-,-,Mycobacterium tuberculosis,culture,-,6.25 µM
CCN(CC)c1ccc(C=O)cc1,-,MIC,H37Rv,-,-,-,Mycobacterium tuberculosis,culture,-,>100 µg/mL
Nc1cc(Cl)cc2[nH]c(=O)c3cc(Cl)ccc3c12,-,inhibition,H37Rv,-,BACTEC,12.5 µg/mL,Mycobacterium tuberculosis,culture,-,92%
O=C(NCCBr)c1ccc(CCl)cc1,-,MIC,H37Rv,-,-,-,Mycobacterium tuberculosis,culture,-,>100 µg/mL
O=C(/C=C/c1ccccc1Cl)Nc1nnc(NCCN2CCCC2)s1,Polymerase,IC50,-,-,-,-,Human cytomegalovirus,target,-,>25 µM
CCCCCCCCCCCNCCNN1CCCC1,-,MIC,-,-,-,-,Mycobacterium tuberculosis,culture,-,50 µM
CCN(CC)c1ccc2nc3c4ccccc4c(=N)cc-3oc2c1,-,MIC,KM-R,-,-,-,Mycobacterium tuberculosis,culture,-,1.6 µg/mL
CN(C)c1ccc(-c2cncc(N3CCN(c4ccc(Cl)cc4)CC3)n2)cc1,UL97 kinase,IC50,-,-,-,-,Cytomegalovirus,target,-,<100 µM
Nc1nc2cc(Cl)ccc2n1N,-,inhibition,H37Rv,-,BACTEC,12.5 µg/mL,Mycobacterium tuberculosis,culture,-,89%
Fc1ccc(N2CCN(c3cncc(-c4cccc(F)c4)n3)CC2)cc1,UL97 kinase,inhibition,-,-,-,10 µM,Cytomegalovirus,target,-,>15%
N#Cc1ccc(C(=O)Nc2nnc(NCC(c3ccccc3)c3ccccc3)s2)cc1,Polymerase,IC50,-,-,-,-,Human cytomegalovirus,target,-,<25 µM
CC(C)=CCN1Cc2cc(Cl)cc3[nH]c(=S)n(c23)C[C@@H]1C,-,EC95,-,MT-4,-,-,HIV-1,culture,RT-M41L T215Y K103N,>3 µM
c1ccc(C(CCNCCNC2CCCCCCC2)c2ccccc2)cc1,-,MIC,-,-,-,-,Mycobacterium tuberculosis,culture,-,6.25 µM
O=C1c2cccc(Cl)c2C(=O)c2cccc(Cl)c21,-,MIC,H37Rv,-,-,-,Mycobacterium tuberculosis,culture,-,50 µg/mL
NC(=O)NC(=O)c1nc2ccccc2[nH]c1=O,-,inhibition,H37Rv,-,BACTEC,12.5 µg/mL,Mycobacterium tuberculosis,culture,-,0%
CCCCCCCC/C=C/CCCCCCCC(=O)Nc1nnc(NCC2CCCO2)s1,Polymerase,IC50,-,-,-,-,Human cytomegalovirus,target,-,>25 µM
COc1cc(C2CC(=O)c3ccccc3O2)ccc1O,-,MIC,H37Rv,-,-,-,Mycobacterium tuberculosis,culture,-,8 µg/mL
OCCCOc1ccccc1,-,MIC,H37Rv,-,-,-,Mycobacterium tuberculosis,culture,-,2000 µg/mL
Cc1ccc(NC(=O)c2cc(S(=O)(=O)n3cc[nH]c3=O)c(S)cc2Cl)cc1,-,MIC bound,H37Rv,-,resazurin,-,Mycobacterium tuberculosis,culture,-,>6.25 µg/mL
COc1ccc(N2CCN(c3cncc(-c4ccccc4C)n3)CC2)cc1OC,UL97 kinase,inhibition,-,-,-,10 µM,Cytomegalovirus,target,-,>15%
O=C1Nc2ccccc2C1=O,-,MIC,H37Rv,-,-,-,Mycobacterium tuberculosis,culture,-,>100 µg/mL
CCC/C(C)=N/NC(=S)SC,-,MIC,H37Rv,VERO,BACTEC,-,Mycobacterium tuberculosis,culture,-,1.56 µg/mL
Fc1ccc(-c2cncc(N3CCN(c4ccccn4)CC3)n2)c(F)c1,UL97 kinase,inhibition,-,-,-,10 µM,Cytomegalovirus,target,-,>15%
O=c1c2ccccc2oc2ccccc12,-,MIC,H37Rv,-,-,-,Mycobacterium tuberculosis,culture,-,>100 µg/mL
C=CCc1ccc(O)c(OC)c1,-,MIC90,3001,-,turbidity,-,Candida albicans,culture,-,490 µg/mL
C#CC[C@@H](C(=O)N[C@H](/C=C/C(=O)OCC)C[C@@H]1CCNC1=O)n1cccc(NC(=O)c2cc(C)on2)c1=O,-,inhibition,Serotype 84,H1-HELA,cytopathic effect / XTT,0.204 µM,Rhinovirus,culture,-,90%
Cc1ccc(CN2CCN(Cc3ccc(C)o3)C(C)C2)o1.Cl.Cl,-,MIC bound,H37Rv,-,BACTEC,-,Mycobacterium tuberculosis,culture,-,>12.5 µg/mL
CCOc1ccccc1CNCCNC1Cc2ccccc2C1,-,MIC,-,-,-,-,Mycobacterium tuberculosis,culture,-,50 µM
CCOc1ccc(-n2c(=O)n3c(Nc4ccc(Cl)cc4)nc4c(c(=O)n(C)c(=O)n4C)n3c2=O)cc1,-,inhibition,H37Rv,-,BACTEC,12.5 µg/mL,Mycobacterium tuberculosis,culture,-,53%
Fc1ccc(CCNCCNCCC2=CCCCC2)cc1,-,MIC,-,-,-,-,Mycobacterium tuberculosis,culture,-,12.5 µM
CCCCCCCCC1OC1CCCCCCCC(=O)O,-,MIC,H37Rv,-,-,-,Mycobacterium tuberculosis,culture,-,>100 µg/mL
Cc1cccc(-c2cncc(N3CCN(c4cccc(C(F)(F)F)c4)CC3)n2)c1,UL97 kinase,IC50,-,-,-,-,Cytomegalovirus,target,-,<100 µM
COc1cc(C(=O)O)cc(C)c1Br,-,MIC,H37Rv,-,-,-,Mycobacterium tuberculosis,culture,-,>100 µg/mL
CC(NCCNCc1ccccc1)c1cccc2ccccc12,-,MIC,-,-,-,-,Mycobacterium tuberculosis,culture,-,50 µM
CCCc1ccncc1,-,MIC,H37Rv,-,-,-,Mycobacterium tuberculosis,culture,-,>100 µg/mL
NCCCn1[nH]c(=O)c2cccnc2c1=O,-,MIC bound,H37Rv,-,resazurin,-,Mycobacterium tuberculosis,culture,-,>6.25 µg/mL
CC(=O)Nc1ccc(S(=O)(=O)NO)cc1,-,MIC,H37Rv,-,-,-,Mycobacterium tuberculosis,culture,-,>100 µg/mL
NC(=O)NC(=O)C1C2C=CC(C2)C1C(=O)NC(N)=O,-,inhibition,H37Rv,-,BACTEC,12.5 µg/mL,Mycobacterium tuberculosis,culture,-,0%
O=C(Nc1nnc(NCCc2ccccc2)s1)c1ccc([N+](=O)[O-])o1,Polymerase,IC50,-,-,-,-,Human cytomegalovirus,target,-,>25 µM
Cc1ccc(/C=N/NC(=O)c2ccncc2)cc1,-,MIC,H37Rv,VERO,-,-,Mycobacterium tuberculosis,culture,-,0.1 µg/mL
COc1ccc(NC(C)=O)c2c1oc1ccccc12,-,MIC,H37Rv,-,-,-,Mycobacterium tuberculosis,culture,-,>100 µg/mL
Nc1nc2ccc(CSc3ccc(C(=O)NC(CCC(=O)O)C(=O)O)cc3)cc2c(=O)[nH]1,-,MIC bound,H37Rv,-,BACTEC,-,Mycobacterium tuberculosis,culture,-,>12.5 µg/mL
O=[N+]([O-])c1cccc(O)c1,-,MIC,H37Rv,-,-,-,Mycobacterium tuberculosis,culture,-,>100 µg/mL
CCC(=O)OC[n+]1ccc2c(C)c3[nH]c4ccc(OC)cc4c3c(C)c2c1,-,MIC,H37Rv,VERO,resazurin,-,Mycobacterium tuberculosis,culture,-,0.78 µg/mL
CC(C)c1cc(C(C)C)c(C(=O)Nc2nnc(NCCC(=O)OC(C)(C)C)s2)c(C(C)C)c1,Polymerase,IC50,-,-,-,-,Human cytomegalovirus,target,-,>25 µM
C=C[C@H]1CN2CC[C@H]1C[C@H]2[C@H](O)c1ccnc2ccc(OC)cc12,-,inhibition,H37Rv,-,resazurin,6.25 µg/mL,Mycobacterium tuberculosis,culture,-,-2%
Cc1cc(O)c(C(=O)O)c(O)c1,-,MIC,H37Rv,-,-,-,Mycobacterium tuberculosis,culture,-,>100 µg/mL
COC(=O)C1(OC)C(=O)NC2=C1C(=O)c1ccccc1C2=O,-,inhibition,H37Rv,-,resazurin,6.25 µg/mL,Mycobacterium tuberculosis,culture,-,3%
Nc1nnns1,-,MIC,H37Rv,-,-,-,Mycobacterium tuberculosis,culture,-,>100 µg/mL
O=C(N=Nc1c(O)[nH]c2ccccc12)C(F)(F)F,-,MIC bound,H37Rv,-,BACTEC,-,Mycobacterium tuberculosis,culture,-,>12.5 µg/mL
O=C(Nc1nnc(NCCCCc2ccccc2)s1)c1ccc([N+](=O)[O-])o1,Polymerase,IC50,-,-,-,-,Human cytomegalovirus,target,-,<25 µM

A second listing of 9 rows from above:

Cc1cccc(-c2cncc(N3CCN(c4cccc(C(F)(F)F)c4)CC3)n2)c1 ; protein: UL97 kinase ; measure: IC50 ; species: Cytomegalovirus ; test: target ; result: <100 µM
Fc1ccc(-c2cncc(N3CCN(c4ccccn4)CC3)n2)c(F)c1 ; protein: UL97 kinase ; measure: inhibition ; dose: 10 µM ; species: Cytomegalovirus ; test: target ; result: >15%
CN1CCC23c4c5cc(-c6cc7c8c(c6O)OC6C(O)C=CC9C(C7)N(C)CCC896)c(O)c4OC2C(O)C=CC3C1C5.CS(=O)(=O)O ; measure: MIC bound ; strain or isolate: H37Rv ; read by: BACTEC ; species: Mycobacterium tuberculosis ; test: culture ; result: >12.5 µg/mL
CC(C)=CCN1Cc2cc(Cl)cc3[nH]c(=S)n(c23)C[C@@H]1C ; measure: EC95 ; cells: MT-4 ; species: HIV-1 ; test: culture ; changes: RT-M41L T215Y K103N ; result: >3 µM
Nc1nc2cc(Cl)ccc2n1N ; measure: inhibition ; strain or isolate: H37Rv ; read by: BACTEC ; dose: 12.5 µg/mL ; species: Mycobacterium tuberculosis ; test: culture ; result: 89%
O=C(Nc1nnc(NCCCNC2CCCCC2)s1)c1cccc([N+](=O)[O-])c1 ; protein: Polymerase ; measure: IC50 ; species: Human cytomegalovirus ; test: target ; result: <25 µM
NCCCn1[nH]c(=O)c2cccnc2c1=O ; measure: MIC bound ; strain or isolate: H37Rv ; read by: resazurin ; species: Mycobacterium tuberculosis ; test: culture ; result: >6.25 µg/mL
COc1cc(C2CC(=O)c3ccccc3O2)ccc1O ; measure: MIC ; strain or isolate: H37Rv ; species: Mycobacterium tuberculosis ; test: culture ; result: 8 µg/mL
O=C1c2cccc([N+](=O)[O-])c2C(=O)c2c1cccc2[N+](=O)[O-] ; measure: MIC ; strain or isolate: H37Rv ; species: Mycobacterium tuberculosis ; test: culture ; result: >100 µg/mL